Pooled drug test results. Numbers come from NIAID ChemDB, via PubChem.

Common to all: tests in culture; organism: Cryptococcus neoformans; read-out: MIC

Lines come from different laboratories, so protocols vary. Blank or dashed fields: not listed here.

SMILES | strain or isolate | read by | result
O=C1C[C@@H](c2ccc(Cl)cc2)Cc2cc(O)cc(O)c21 | Clinical isolate H99 | - | 30 µg/mL
COc1cccc(C2Sc3ccccc3C2CO)c1O | Farwania | - | 12.5 µg/mL
Cc1noc(NS(=O)(=O)c2ccc(N)cc2)c1C | IFM 49722 | - | 128 µg/mL
OCC1c2ccccc2SC1c1cc(Br)ccc1O | Farwania | - | 6 µg/mL
N#CC1=C(N)OC2=C(CSc3ccccc32)C1c1ccc2c(c1)OCO2 | Farwania | - | 12.5 µg/mL
CC[C@@H]([C@H](C)O)n1ncn(-c2ccc(N3CCN(c4ccc(OC[C@@H]5CO[C@@](Cn6cncn6)(c6ccc(F)cc6F)C5)cc4)CC3)cc2)c1=O | H99 | - | 0.063 µg/mL
CC1=C2C3=C4[C@](C)([C@@H]5C[C@@H]5[C@@]4(O)C[C@@H]4[C@]35OC(=O)C3=C5C[C@H]5[C@](O)(COC(=O)/C(C)=C/COC(=O)CCC(=O)OC3)[C@H]3C[C@H]3[C@]45C)[C@H](O)[C@]2(O)OC1=O | ATCC 22402 | broth dilution | 64 µg/mL
C[C@H](n1nnc(CCN2CCN(C(c3ccccc3)c3ccccc3)CC2)n1)[C@](O)(Cn1cncn1)c1ccc(F)cc1F | LA314 | - | >16 µg/mL
COc1ccc(/C=C2\CCc3ccccc3C2=O)cc1 | 93/V | - | 100 µg/mL
O=C1C[C@@H](c2ccc(F)cc2)Cc2cc(O)cc(O)c21 | Clinical isolate H99 | - | 27 µg/mL
COc1cccc2c1C(=O)c1c(O)c3c(c(O)c1C2=O)C[C@@](O)(C(C)=O)C[C@@H]3O[C@H]1C[C@H](N)[C@H](O)[C@H](C)O1 | NCPF 3379 | - | >100 µM
C[C@@H]1C(=O)N(CCc2ccccc2)C(=O)[C@@H]1C | ATCC 32264 | broth dilution / turbidity | 62.5 µg/mL
CCCCCCCCC(Cn1ccnc1)c1ccc(Cl)cc1Cl | - | - | <1 µg/mL
CC1C(=O)N(Cc2ccccc2)C(=O)C1C | ATCC 32264 | broth dilution / turbidity | 125 µg/mL
CCCCCCCCC(Cn1ccnc1)c1ccc(Br)cc1 | - | - | >100 µg/mL
COc1nc2c(c(-c3ccc4c(c3)OCO4)c1C#N)CSc1ccccc1-2 | Farwania | - | 3 µg/mL
CC[C@H]1/C=C(\C)[C@H](O)[C@H](C)C[C@H](OC)[C@H]2O[C@@](O)(C(=O)C(=O)N3CCCC[C@H]3C(=O)O[C@H](/C(C)=C/[C@@H]3CC[C@@H](O)[C@H](OC)C3)[C@H](C)[C@@H](O)CC1=O)[C@H](C)C[C@@H]2OC | C20F1 | - | 50 µg/mL
CCCCCCC(Cn1ccnc1)c1ccccc1Br | - | - | 10 µg/mL
COc1nc2c(c(-c3ccccc3)c1C#N)CSc1ccccc1-2 | 25 | - | 12.5 µg/mL
COc1cc(NS(=O)(=O)c2ccc(N)cc2)ncn1 | IFM 51976 | - | ≥256 µg/mL
COc1ccc(N2CCN(CCc3nnn([C@@H](C)[C@](O)(Cn4cncn4)c4ccc(F)cc4F)n3)CC2)cc1 | LA314 | - | >16 µg/mL
OCC1c2ccccc2SC1c1ccccc1O | Isolate 25 | - | 6 µg/mL
CO[C@@H]1[C@@H](C)O[C@@H](OCC23CC4C(C)CCC4C4(C=O)CC2C=C(C(C)C)C43C(=O)O)[C@@H](O)C12OC(=O)[C@H](CCCCCCCC(=O)O)O2 | MY2062 | - | >100 µg/mL
CCCC(Cn1ccnc1)c1ccc(F)cc1 | - | - | 10 µg/mL
O=C1/C(=C/c2ccc3c(c2)OCO3)CSc2ccc(Cl)cc21 | Farwania | - | 12.5 µg/mL
Clc1ccc(C(Cc2cccc(Cl)c2)c2c(Cl)nc(N3CCNCC3)nc2Cl)cc1 | - | - | 150 µg/mL
C[C@H](n1nnnc1CCN1CCN(c2ccc(Cl)cc2)CC1)[C@](O)(Cn1cncn1)c1ccc(F)cc1F | LA314 | - | 4 µg/mL
N#CC1=C(N)OC2=C(CSc3ccc(Cl)cc32)C1c1ccc2c(c1)OCO2 | 25 | - | 6 µg/mL
O=C1/C(=C/c2ccc(Cl)cc2)CCc2ccccc21 | 25 | - | 6 µg/mL
CCC(C)CC(C)CCCCCCCCC(=O)N[C@H]1C[C@@H](O)[C@H](NCCN)NC(=O)[C@@H]2[C@@H](O)CCN2C(=O)[C@H]([C@H](O)CCN)NC(=O)[C@H]([C@H](O)[C@@H](O)c2ccc(O)cc2)NC(=O)[C@@H]2C[C@@H](O)CN2C(=O)[C@H]([C@@H](C)O)NC1=O | B 36203 | broth dilution | 8 µg/mL
Cc1coc2c1C(=O)[C@@H]1[C@@](C)(C2)[C@H](O)CC[C@@]1(C)O | ATCC 22402 | broth dilution | >256 µg/mL
COC1CC2CCC(C)C(O)(O2)C(=O)C(=O)N2CCCCC2C(=O)OC(C(C)CC2CCC(O)C(OC)C2)CC(=O)C(C)/C=C(\C)[C@@](O)(c2ccc(C)s2)C(OC)C(=O)C(C)CC(C)/C=C/C=C/C=C/1C | TOR1-1 | - | >100 µg/mL
CC(=O)[C@]1(O)Cc2c(O)c3c(c(O)c2[C@@H](O[C@H]2C[C@H](N)[C@H](O)[C@H](C)O2)C1)C(=O)c1ccccc1C3=O | Clinical isolate (capsule-negative) | - | 7.42 µM
CC1=C2C3=C4[C@](C)([C@@H]5C[C@@H]5[C@@]4(O)C[C@@H]4[C@]35OC(=O)C3=C5C[C@H]5[C@](O)(COC(=O)/C(C)=C/COC(=O)CCC(=O)OC3)[C@H]3C[C@H]3[C@]45C)[C@@H](O)[C@]2(O)OC1=O | ATCC 22402 | broth dilution | 128 µg/mL
CCCOc1nc2c(c(-c3ccc4c(c3)OCO4)c1C#N)CSc1ccc(Cl)cc1-2 | Farwania | - | 12.5 µg/mL
CCCCCCCCC(Cn1ccnc1)c1ccccc1Cl | - | - | 10 µg/mL
CC1CC(=O)N(c2ccccc2)C1=O | ATCC 32264 | broth dilution / turbidity | 125 µg/mL
O=C1/C(=C/c2ccc(O)cc2)CCc2ccccc21 | 25 | - | 100 µg/mL
CCCCCC(Cn1ccnc1)c1ccccc1Cl | - | - | 10 µg/mL
C[C@@H]1CC(=O)N(c2ccc(Br)cc2)C1=O | ATCC 32264 | broth dilution / turbidity | 62.5 µg/mL
COc1cccc2c1C(=O)c1c(O)c3c(c(O)c1C2=O)C[C@@](O)(C(=O)CO)C[C@@H]3O[C@H]1C[C@H](N)[C@@H](O)[C@H](C)O1 | Clinical isolate (capsule-negative) | - | >100 µM
N#CC1=C(N)OC2=C(CSc3ccc(Cl)cc32)C1c1ccccc1 | 25 | - | 12.5 µg/mL
CC(C(O)(Cn1cncn1)c1ccc(F)cc1F)S(C)(=O)=O | Isolate 89-98 | - | 40 µg/mL
CC(C(O)(Cn1cncn1)c1ccc(F)cc1F)S(C)(=O)=O | R715 (AZOLE-R) | - | 20 µM
Cc1ccc(N2C(=O)CC(C)C2=O)cc1 | ATCC 32264 | broth dilution / turbidity | 62.5 µg/mL
COc1cc(C2C(C#N)=C(N)OC3=C2CSc2ccccc23)ccc1O | 93/V | - | 3 µg/mL
C[C@@H](c1ncncc1F)[C@](O)(Cn1cncn1)c1ccc(F)cc1F | ATCC 90113 | - | 0.06 µg/mL
COc1cc(O)c2c(c1)C(=O)c1c(cc3c(c1O)-c1c(cc(C)c(C(=O)NC(CO)C(=O)O)c1O)[C@H](OC1OC(C)C(O)C(OC4OCC(O)C(O)C4O)C1O)C3O)C2=O | IAM 4514 | - | 6.3 µg/mL
COc1ccc(O)c(C2Sc3ccccc3C2CO)c1 | Isolate 25 | - | 12.5 µg/mL
CC1CC(=O)N(CCc2ccccc2)C1=O | ATCC 32264 | broth dilution / turbidity | 125 µg/mL
C/C1=C\C(=O)c2c(C)coc2C/C(C)=C/CC1 | ATCC 22402 | broth dilution | 128 µg/mL
C[C@@H](n1ncn(-c2ccc(OCC(F)(F)C(F)F)cc2)c1=O)[C@](O)(Cn1cncn1)c1ccc(F)cc1F | DUMC 109.97 | - | 0.125 µg/mL
COc1ccc(NS(=O)(=O)c2ccc(N)cc2)nn1 | IFM 49624 | - | ≥256 µg/mL
CC(Cn1ccnc1)c1ccc(Cl)cc1 | - | - | 10 µg/mL
COC1CC2CCC(C)C(O)(O2)C(=O)C(=O)N2CCCCC2C(=O)OC(C(C)CC2CCC(O)C(OC)C2)CC(=O)C(C)/C=C(\C)C(O)[C@@](OC)(N(O)C(=O)OCC(C)C)C(=O)C(C)CC(C)/C=C/C=C/C=C/1C | FRR1 | - | >100 µg/mL
OC(Cn1cncn1)(Cn1nnc(CCN2CCN(c3ccccn3)CC2)n1)c1ccc(F)cc1F | LA314 | - | >16 µg/mL
N#CC1=C(N)OC2=C(CSc3ccc(Cl)cc32)C1c1cccc2ccccc12 | Farwania | - | 25 µg/mL
CCCCC(Cn1ccnc1)c1ccccc1Cl | - | - | 100 µg/mL
COc1ccccc1-c1c(C#N)c(OC)nc2c1CSc1ccccc1-2 | 25 | - | 25 µg/mL
N#CC(CC(=O)O)C(N)C(=O)O | IAM 4514 | - | >100 µg/mL

Repeating the final 5 entries:

SMILES	strain or isolate	read by	result
OC(Cn1cncn1)(Cn1nnc(CCN2CCN(c3ccccn3)CC2)n1)c1ccc(F)cc1F	LA314	-	>16 µg/mL
N#CC1=C(N)OC2=C(CSc3ccc(Cl)cc32)C1c1cccc2ccccc12	Farwania	-	25 µg/mL
CCCCC(Cn1ccnc1)c1ccccc1Cl	-	-	100 µg/mL
COc1ccccc1-c1c(C#N)c(OC)nc2c1CSc1ccccc1-2	25	-	25 µg/mL
N#CC(CC(=O)O)C(N)C(=O)O	IAM 4514	-	>100 µg/mL